From patent publication US5457101A (priority 1994, dated 1995)

Test system: 5-HT-2 receptor
Test: H-spiperone displacement from binding sites in rat frontal cortex (Peroutka and Snyder)
Settings: greatest activity at the 5-HT-2 receptor

## Cc1cc2c(s1)Nc1ccccc1N=C2N1CCN(C)CC1 [2-methyl-4-(4-methyl-1-piperazinyl)-10H-thieno-[2,3-b][1,5]benzodiazepine]
  concentration displacing H-spiperone from binding sites: low nanomolar concentrations
